# Source: patent US10016498B2, “D-amino acid derivative-modified peptidoglycan and methods of use thereof” (priority 2012, dated 2018)
# Tests used:
# L. monocytogenes = details: 5 mM azDala, 2 mM D-alanine, strain-promoted cycloaddition, dal- dat- L. monocytogenes
# [1] = tested on: L. monocytogenes proteins and LTA; assay: Immunoblot for incorporation of azDala into proteins and lipoteichoic acids
# [2] = tested on: bacteria (E. coli, Bacillus subtilis, L. monocytogenes, Mycobacterium tuberculosis, Streptomyces coelicolor, Corynebacterium glutamicum); details: strain-promoted cycloaddition or CuAAC with fluorescent dye
structure (smiles),measurement,setting,value
[N-]=[N+]=NC[C@@H](N)C(=O)O,labeling on addition of exogenous D-alanine,L. monocytogenes,suppressed
same,"incorporation into LTA (phosphine-FLAG, immunoblot)",[1],No azide-labeled species was detected
same,"incorporation into proteins (lysates reacted with alkyne-biotin, immunoblot)",[1],No azide-labeled proteins were detected
same,cell surface labeling by microscopy,[2],Clear cell surface labeling of all species tested
